A mixed list of measured activities; the numbers were collected in NIAID ChemDB.

Shared fields: host cell toxicity; cells: CEM; measure: CC50

An empty or dashed field is not shown. Rows are shuffled and stem from different studies. CCn is the concentration with n% toxicity to the cells.

SMILES | read by | result
Cc1cccc2c1OP(=O)(OC[C@@H]1C=C[C@H](n3cc(C)c(=O)[nH]c3=O)O1)OC2 | - | 32 µM
N#C/C(=C\c1cc(O)c(O)c(O)c1)C(=O)NCCCCNC(=O)/C(C#N)=C/c1cc(O)c(O)c(O)c1 | - | 49.8 µM
O=C(NN1C(=O)C(Cl)C1c1ccccc1Cl)c1ccccc1O | - | >14.8 µM
CCCCCCCCOCCCCC(=O)O | - | 48 µM
Nc1nc2c(ncn2CCOCP(=O)(O)O)c(=O)[nH]1 | - | ≥0.8 µM
CCCCCCCCCCCCCCCCOP(=O)([O-])OCC[N+](C)(C)Cc1ccccc1 | MTT | 13.8 µM
Cc1cn([C@H]2C=C[C@@H](COP3(=O)OCc4cc(C=O)cc(C(C)(C)C)c4O3)O2)c(=O)[nH]c1=O | - | 59 µM
Nc1ccn([C@@H]2CS[C@H](CO)O2)c(=O)n1 | - | 10.73 ± 0.22 µM
CCc1c(Sc2ccccn2)n(COCc2ccccc2)c(=O)[nH]c1=O | - | 0.98 µM
Cc1cc(NCc2cccc3ccccc23)c(C(=O)C(Cl)Cl)c(=O)o1 | MTT | 5.4 µM
CC1=NN(C(=O)c2ccc(Cl)cc2)C(=O)/C1=C/c1cccc([N+](=O)[O-])c1 | - | >20 µM
C[C@H](Cn1cnc2c(N)nc(N)nc21)OCP(=O)(O)O | - | >300 µM
[N-]=[N+]=N[C@H]1C[C@H](n2cc(/C(Br)=C\I)c(=O)[nH]c2=O)O[C@@H]1CO | - | 30.6 µM
CN(C)C1C(=O)C(C(=O)NCNC(CCS(C)=O)C(=O)[O-])=C(O)C2(O)C(=O)C3=C(O)c4c(O)cccc4C(C)(O)C3CC12.[Na+] | - | >100 µM
CN(C)CCCNC(=O)c1cc(NC(=O)c2cc(NC(=O)c3cc(NC(=O)c4ccccc4C(=O)O)cn3C)cn2C)cn1C | - | >200 µM
Nc1nc(=O)n([C@@H]2CC[C@H](CO)O2)cc1F | - | 67 µM
Nc1cc(OCCOCP(=O)(O)O)nc(N)n1 | - | 3.9 µg/mL
CCCOC(=O)c1cc(O)c(O)c(O)c1 | cell count | 65 µg/mL
CC(C)c1ccc(C(c2ccc(OCC(=O)O)cc2)c2ccc(C(C)C)cc(=O)c2O)c(O)c(=O)c1 | - | >11.7 µM
Cc1cn([C@H]2C=C[C@@H](CO)O2)c(=O)[nH]c1=O | - | 234 µM
O=c1[nH]cnc2c1ncn2[C@H]1CC[C@@H](CO)O1 | - | >100 µM
Cn1cc(NC(=O)c2cc(NC(=O)c3cc(NC=O)cn3C)cn2C)cc1C(=O)NCCC(=N)N | - | 30.4 µM
CC(=O)O[C@H](C)[C@@H]1C2=C(C(=O)C[C@]1(C)O)C(=O)c1c(ccc(-c3ccc4c(c3O)C(=O)C3=C(C4=O)[C@@H]([C@@H](C)OC(C)=O)[C@@](C)(O)CC3=O)c1O)C2=O | - | >0.3 µM
OCc1cccc(-c2cccc(CO)c2O)c1O | trypan blue | 150 µM
Nc1nc(N)c(Br)c(OCCOCP(=O)(O)O)n1 | - | >100 µg/mL
COc1ccc(/C=C2/C(=O)N(C(=O)c3ccc(Cl)cc3)N=C2C)cc1OC | - | >35 µM
Cn1cc(NC(=O)c2cc(NC(=O)CCCCCCCCCC(=O)Nc3cc(C(=O)Nc4cc(C(=O)NCCC(N)=[NH2+])n(C)c4)n(C)c3)cn2C)cc1C(=O)NCCC(N)=[NH2+] | - | 57 µM
Cc1cn([C@@H]2O[C@H](CO[Si](C)(C)C(C)(C)C)C3(OS(=O)(=O)C=C3N)[C@H]2O[Si](C)(C)C(C)(C)C)c(=O)n(CC(=O)N[C@@H](C)C(=O)O)c1=O | - | >250 µM
Cc1cn([C@H]2C[C@H](N=[N+]=[N-])[C@@H](CN3C(=S)c4ccccc4C3=S)O2)c(=O)[nH]c1=O | - | 19 µM
CN(C)CCCNC(=O)c1cc(NC(=O)c2cc(NC(=O)c3cc(NC(=O)c4cncc(C(=O)Nc5cc(C(=O)Nc6cc(C(=O)Nc7cc(C(=O)NCCCN(C)C)n(C)c7)n(C)c6)n(C)c5)c4)cn3C)cn2C)cn1C | - | >100 µM
Nc1ncnc2c1ncn2CCOCP(=O)(O)O | MTT | >100 µM
Cc1cn([C@H]2C[C@H](N=[N+]=[N-])[C@@H](CN3C(=O)c4c(F)c(F)c(F)c(F)c4C3=O)O2)c(=O)[nH]c1=O | - | >200 µM
NC(CCSSCCC(N)P(=O)(O)O)P(=O)(O)O | - | >200 µM
Nc1nc2c(ncn2[C@@H]2OC[C@](CO)(CCP(=O)(O)O)[C@@H]2F)c(=O)[nH]1 | MTT | >100 µM
COC(=O)c1cc(O)c(O)c(O)c1 | cell count | 83 µg/mL
Cc1cn([C@H]2C[C@H](N=[N+]=[N-])[C@@H](CN3C(=O)c4cc(Cl)c(Cl)cc4C3=O)O2)c(=O)[nH]c1=O | - | >200 µM
CCc1c(SCc2cccc3ccccc23)cc(C)oc1=O | MTT | 77 µM
CCCCCCCCCCCCCCCC[N+](C)(C)Cc1ccccc1 | MTT | 0.9 µM
N#C/C(=C\c1ccc(O)c(O)c1)C(=O)NCCc1ccc(O)c(O)c1 | - | 29.8 µM
CCOCn1c([Se]c2ccccc2)c(F)c(=O)[nH]c1=O | - | 28.9 µM
Cc1cn([C@@H]2O[C@H](CCC(C)C)C3(OS(=O)(=O)C=C3N)[C@H]2OC(=O)c2ccccc2)c(=O)[nH]c1=O | trypan blue | 27 µg/mL
Cc1cn([C@@H]2O[C@H](CO[Si](C)(C)C(C)(C)C)C3(OS(=O)(=O)C=C3N)[C@H]2O[Si](C)(C)C(C)(C)C)c(=O)n(CCOC(=O)[C@@H](N)C(C)C)c1=O | - | 21 µM
CN(C)CCCNC(=O)c1cc(NC(=O)c2cc(NC(=O)c3cc(NC(=O)c4ccnc(C(=O)Nc5cc(C(=O)Nc6cc(C(=O)Nc7cc(C(=O)NCCCN(C)C)n(C)c7)n(C)c6)n(C)c5)c4)cn3C)cn2C)cn1C | - | >100 µM
CN(C)C1C(=O)C(C(=O)NCNCCC(=O)O)=C(O)C2(O)C(=O)C3=C(O)c4c(O)cccc4C(C)(O)C3CC12 | - | >111 µM
C[C@H](Cn1cnc2c(N)ncnc21)OCP(=O)(O)O | - | ≥500 µM
Cc1cn([C@H]2C[C@H](N=[N+]=[N-])[C@@H](CO)O2)c(=O)[nH]c1=O | - | >40 µg/mL
N#C/C(=C\c1ccc(O)c(O)c1)C(=O)NCCCc1ccccc1 | - | 24.3 µM
Cc1cn([C@H]2C=C[C@@H](CO)O2)c(=O)[nH]c1=O | - | 213 µM
Cc1cn([C@H]2C=C[C@@H](CO)O2)c(=O)[nH]c1=O | - | 29 µM
Cc1cn([C@H]2C[C@H](N=[N+]=[N-])[C@@H](COC(=O)CNNC(=O)c3ccncc3)O2)c(=O)[nH]c1=O | XTT | >1000 µM
CCOCn1c([Se]c2ccccc2)c(C)c(=O)[nH]c1=O | - | >100 µM
CCCCCCOCCCCCCC(=O)O | - | 60 µM
Nc1nc(N)c(C=O)c(OCCOCP(=O)(O)O)n1 | - | ≥100 µg/mL
Cc1cn([C@@H]2O[C@H](C)C3(OS(=O)(=O)C=C3N)[C@H]2O[Si](C)(C)C(C)(C)C)c(=O)[nH]c1=O | trypan blue | 96 µg/mL
O=C(O)P(=O)(O)O | - | 800 µM
CCCCCCCOCCCCCC(=O)O | - | 128 µM
CCCCCCCCCCCCCCCCOP(=O)([O-])OCCC[n+]1ccccc1 | MTT | 34.6 µM
Cc1cn([C@H]2C[C@H](N=[N+]=[N-])[C@@H](CO)O2)c(=O)[nH]c1=O | - | 8 µM
Nc1nc2c(ncn2C2CC(/C=C/P(=O)(O)O)(C(F)(F)F)CO2)c(=O)[nH]1 | MTT | >100 µM
Cc1cc(N[C@H](C)c2cccc3ccccc23)cc(=O)o1 | MTT | 83 µM
Nc1ccn([C@@H]2C=C[C@H](CO)O2)c(=O)n1 | - | 20 µM
Nc1ccccc1C(=O)NNC(=O)c1ccccc1N | - | >200 µM
Cc1cn([C@H]2C[C@H](N=[N+]=[N-])[C@@H](CN3C(=O)c4ccccc4C3=O)O2)c(=O)[nH]c1=O | - | ≥230 µM
Cc1cn([C@H]2C[C@H](N=[N+]=[N-])[C@@H](COP(=O)(O)OC[C@H]3CC[C@@H](n4cnc5c(N)ncnc54)O3)O2)c(=O)[nH]c1=O | - | 128.1 µM
Nc1ncnc2c1ncn2C1CC(/C=C/P(=O)(O)O)(C(F)(F)F)CO1 | MTT | >100 µM
O=C(O)/C=C/c1ccc(O)c(O)c1 | cell count | >100 µg/mL
CC(=O)c1c(NCc2cccc3ccccc23)cc(C)oc1=O | MTT | >250 µM
Cc1cn([C@H]2C[C@H](N=[N+]=[N-])[C@@H](CO)O2)c(=O)[nH]c1=O | - | 80 µM
C[C@@H](Cn1cnc2c(N)nc(N)nc21)OCP(=O)(O)O | - | >300 µM
O=C(C[C@@H](O)CCc1ccc(O)c(O)c1)O[C@H]1Cc2c(O)cc(O)cc2O[C@@H]1c1ccc(O)c(O)c1 | - | >21.1 µM
Nc1ncnc2c1ncn2C1CC(CO)C1 | - | >456 µM
Cc1cn([C@H]2C[C@H](N=[N+]=[N-])[C@@H](CN3C(=O)c4ccc([N+](=O)[O-])cc4C3=O)O2)c(=O)[nH]c1=O | - | >200 µM
CCCCOCCCCCCCCC(=O)O | - | 228 µM
COC(=O)[C@H](C)NP(=O)(OC[C@@H]1C=C[C@H](n2cc(C)c(=O)[nH]c2=O)O1)Oc1ccc(OC)cc1 | - | >10 µM
Nc1ccn([C@@H]2CS[C@H](CO)O2)c(=O)n1 | - | 50 µM
Nc1nc(=O)n([C@@H]2CS[C@H](CO)O2)cc1F | - | 14.3 µM
Cc1cccc2c1OP(=O)(OC[C@@H]1C[C@H](F)[C@H](n3cnc4c(=O)[nH]cnc43)O1)OC2 | - | 91.9 µM
Cc1cn([C@@H]2O[C@H](CO[Si](C)(C)C(C)(C)C)C3(OS(=O)(=O)C=C3N)[C@H]2O[Si](C)(C)C(C)(C)C)c(=O)n(CC(=O)N[C@@H](C)C(=O)OCc2ccccc2)c1=O | - | ≥250 µM
[N-]=[N+]=N[C@H]1C[C@H](n2cc(C#CI)c(=O)[nH]c2=O)O[C@@H]1CO | - | 31.6 µM
O=C(O)/C=C/c1ccc(O)c(O)c1.O=C(O)c1cc(O)c(O)c(O)c1 | cell count | >100 µg/mL
Cc1cn([C@H]2C[C@H](N=[N+]=[N-])[C@@H](COP(=O)(OCCC#N)OC[C@@H]3CC[C@H](n4cnc5c(N)ncnc54)O3)O2)c(=O)[nH]c1=O | - | 130.5 µM
COc1ccc(C2C(Cl)C(=O)N2NC(=O)c2ccccc2O)cc1 | - | >144 µM
CCCCCCCCCCCCCCCCOP(=O)([O-])OCC[n+]1ccccc1 | MTT | 22.9 µM
O=c1[nH]c(=O)n([C@H]2C[C@H](F)[C@@H](CO)O2)cc1/C(I)=C/I | - | 100 µM
N#C/C(=C\c1ccc(O)c(O)c1)C(=O)NCN1CCN(C(=O)/C(C#N)=C/c2ccc(O)c(O)c2)CC1 | - | 16.8 µM
O=c1[nH]c(=O)n([C@H]2C[C@H](F)[C@@H](CO)O2)cc1/C(Cl)=C/I | - | 33.1 µM
Cc1cn([C@H]2C[C@H](N=[N+]=[N-])[C@@H](COP(=O)(OCCC#N)OC3CCC4(C)C(=CCC5C4CCC4(C)C(C(C)CCCC(C)C)CCC54)C3)O2)c(=O)[nH]c1=O | - | >200 µM
N#CC(C#N)=Cc1cc(O)c(O)c(O)c1 | - | 31.8 µM
CC(C)NCC(O)c1ccc(O)c(O)c1 | cell count | >100 µg/mL
CCCCCCCCCOCCCC(=O)O | - | 68 µM
N#C/C(=C\c1cc(O)c(O)c(O)c1)C(=O)NCCCCCNC(=O)/C(C#N)=C/c1cc(O)c(O)c(O)c1 | - | 38.3 µM

Repeating the first 7 entries:

SMILES	read by	result
Cc1cccc2c1OP(=O)(OC[C@@H]1C=C[C@H](n3cc(C)c(=O)[nH]c3=O)O1)OC2	-	32 µM
N#C/C(=C\c1cc(O)c(O)c(O)c1)C(=O)NCCCCNC(=O)/C(C#N)=C/c1cc(O)c(O)c(O)c1	-	49.8 µM
O=C(NN1C(=O)C(Cl)C1c1ccccc1Cl)c1ccccc1O	-	>14.8 µM
CCCCCCCCOCCCCC(=O)O	-	48 µM
Nc1nc2c(ncn2CCOCP(=O)(O)O)c(=O)[nH]1	-	≥0.8 µM
CCCCCCCCCCCCCCCCOP(=O)([O-])OCC[N+](C)(C)Cc1ccccc1	MTT	13.8 µM
Cc1cn([C@H]2C=C[C@@H](COP3(=O)OCc4cc(C=O)cc(C(C)(C)C)c4O3)O2)c(=O)[nH]c1=O	-	59 µM